Pooled drug test results. Numbers come from NIAID ChemDB, via PubChem.

Inhibition is in % at the dose shown (toxicity tests: loss of growth or viability). Blank or dashed fields: not listed here. MIC50, MIC90 and the like: level of inhibition, or share of isolates inhibited. MIC bound: limit read from a one-dose screen. ICn is the concentration giving n% inhibition. Conditions beyond the fields shown may differ between rows. ECn: concentration that inhibits the pathogen or its effect by n%.

compound | method | read-out | cell line | mutations | protein | strain | dose | agent | kind | result
Cc1ccnc2c1NC(=O)c1cccnc1N2C1CC1 | - | EC95 | MT-4 | RT-M41L T215Y L100I | - | - | - | HIV-1 | culture | 0.4 µM
OCC(O)CN(Cc1ccccc1)c1ccccc1 | - | MIC | - | - | - | H37Rv | - | Mycobacterium tuberculosis | culture | >100 µg/mL
CCCCCCCC/C=C/CCCCCCCC(=O)Nc1nnc(NCCCNC2CCCCC2)s1 | - | IC50 | - | - | Polymerase | - | - | Human cytomegalovirus | target | <25 µM
CCCCCCCCCCCNCCNC1CCCC1 | - | MIC | - | - | - | - | - | Mycobacterium tuberculosis | culture | 50 µM
Cc1cc(C)c(C)c(S(=O)(=O)[O-])c1C.[Na+] | - | MIC | - | - | - | H37Rv | - | Mycobacterium tuberculosis | culture | >100 µg/mL
Fc1cc(-c2cncc(N3CCN(c4ccccc4F)CC3)n2)ccc1-c1ccccc1 | - | inhibition | - | - | UL97 kinase | - | 10 µM | Cytomegalovirus | target | >15%
O=C1c2ccccc2C(=CC=C2c3ccccc3Sc3ccccc32)c2ccccc21 | BACTEC | inhibition | - | - | - | H37Rv | 12.5 µg/mL | Mycobacterium tuberculosis | culture | 39%
O=C(Nc1nnc(NCCc2cnc[nH]2)s1)c1c(Cl)cccc1Cl | - | inhibition | - | - | Polymerase | - | 25 µM | Human cytomegalovirus | target | 65.6%
CCO/N=C/c1ccc(OCCC2CCN(c3ccc(C)nn3)CC2)cc1 | neutral red | EC50 | KB | - | - | 1857-CV51 (ICAM-1 receptor group 67) | - | Rhinovirus | culture | 0.016 µM
O=C(/C=C/c1ccccc1Cl)Nc1nnc(NCCc2c[nH]c3ccccc23)s1 | - | IC50 | - | - | Polymerase | - | - | Human cytomegalovirus | target | >25 µM
COc1ccccc1C(=O)N(C)c1ccc(Cl)c(C(=O)OC(C)C)c1 | BACTEC | MIC bound | - | - | - | H37Rv | - | Mycobacterium tuberculosis | culture | >12.5 µg/mL
CCC(CC)O[C@@H]1C=C(C(=O)O)C[C@H](N)[C@H]1NC(C)=O | - | EC50 | MDCK | - | - | Influenza A/Victoria/3/75 (H3N2) | - | Influenza A virus | culture | 0.06 µM
CC(=O)c1ccc(N)cc1 | - | MIC | - | - | - | H37Rv | - | Mycobacterium tuberculosis | culture | >100 µg/mL
Cc1ccc(N2CCN(c3cncc(-c4ccc5ccccc5c4)n3)CC2)c(C)c1 | - | IC50 | - | - | UL97 kinase | - | - | Cytomegalovirus | target | <100 µM
CCCCC(CC)CN1CN(CC(CC)CCCC)CC(C)(NCCNC[C@@H]2CC[C@H]3C[C@@H]2C3(C)C)C1 | - | MIC | - | - | - | - | - | Mycobacterium tuberculosis | culture | 25 µM
O=C(O)c1ccccc1-c1c2cc(Br)c(=O)c(Br)c-2oc2c(Br)c(O)c(Br)cc12 | BACTEC | inhibition | - | - | - | H37Rv | 12.5 µg/mL | Mycobacterium tuberculosis | culture | -2%
C=C(C)CN(CC(=C)C)c1nc(N)nc(Cl)n1 | - | MIC | - | - | - | H37Rv | - | Mycobacterium tuberculosis | culture | >100 µg/mL
C=C(C)C1CCC2(CO)CCC3(C)C(CCC4C5(C)CCC(OC6CCCCO6)C(C)(C)C5CCC43C)C12 | BACTEC | inhibition | - | - | - | H37Rv | 12.5 µg/mL | Mycobacterium tuberculosis | culture | 0%
Cc1ccc(-c2cncc(N3CCN(c4ccncc4)CC3)n2)cc1 | - | IC50 | - | - | UL97 kinase | - | - | Cytomegalovirus | target | <10 µM
NC(=O)C(CO)NC(=O)c1ccc[n+](Cc2ccccc2)c1.[I-] | BACTEC | MIC | - | - | - | H37Rv | - | Mycobacterium tuberculosis | culture | ≥12.5 µg/mL
CC(CS(C)(=O)=O)S(=O)[O-].[Na+] | - | MIC | - | - | - | H37Rv | - | Mycobacterium tuberculosis | culture | >100 µg/mL
O=C(Nc1cc2c3cc(NC(=O)c4ccccc4)c4c(=O)c5ccccc5c(=O)c4c3[nH]c2c2c(=O)c3ccccc3c(=O)c12)c1ccccc1 | BACTEC | MIC bound | - | - | - | H37Rv | - | Mycobacterium tuberculosis | culture | >12.5 µg/mL
C=CCOc1ccccc1 | - | MIC | - | - | - | H37Rv | - | Mycobacterium tuberculosis | culture | >100 µg/mL
COc1cc(-c2cncc(N3CCN(c4cccc5[nH]ccc45)CC3)n2)cc(OC)c1OC | - | IC50 | - | - | UL97 kinase | - | - | Cytomegalovirus | target | <100 µM
Cc1nc2ccccc2[nH]c1=O | - | MIC | - | - | - | H37Rv | - | Mycobacterium tuberculosis | culture | >100 µg/mL
C#CC[C@@H](C(=O)N[C@H](/C=C/C(=O)OCC)C[C@@H]1CCNC1=O)n1cccc(NC(=O)c2cc(C)on2)c1=O | cytopathic effect / XTT | inhibition | H1-HELA | - | - | Serotype 38 | 0.132 µM | Rhinovirus | culture | 90%
CCNC(C)C(=O)c1ccccc1.Cl | - | MIC | - | - | - | H37Rv | - | Mycobacterium tuberculosis | culture | >100 µg/mL
COc1ccccc1N1CCN(c2cncc(-c3ccc(N(C)C)cc3)n2)CC1 | - | IC50 | - | - | UL97 kinase | - | - | Cytomegalovirus | target | <100 µM
O=C(/C=C/c1ccccc1)Nc1nnc(NCCCNC2CCCCC2)s1 | - | IC50 | - | - | Polymerase | - | - | Human cytomegalovirus | target | <25 µM
C[C@H](Cc1ccc(O)c(O)c1)[C@@H](C)Cc1ccc(O)c(O)c1 | broth dilution | MIC80 | - | - | - | ATCC 10231 | - | Candida albicans | culture | 250 µg/mL
C(=C\c1ccccn1)/c1ccccc1 | - | MIC | - | - | - | H37Rv | - | Mycobacterium tuberculosis | culture | >100 µg/mL
Cc1cc(O)c(C=O)c2c1C(=O)Oc1c(CO)c(O)c3c(c1O2)C(O)OC3=O | BACTEC | MIC | - | - | - | H37Rv | - | Mycobacterium tuberculosis | culture | ≥12.8 µg/mL
COc1ccc(CNCCNCc2ccccc2Sc2ccccc2CO)cc1OC | - | MIC | - | - | - | - | - | Mycobacterium tuberculosis | culture | 6.25 µM
Cc1ccc(Nc2c(Cl)c(Cl)c(Nc3ccc(C)cc3S(=O)(=O)O)c3c2C(=O)c2c(O)ccc(O)c2C3=O)c(S(=O)(=O)O)c1 | - | MIC | - | - | - | H37Rv | - | Mycobacterium tuberculosis | culture | >100 µg/mL
NC(=O)NOCC1NC(=O)C(CONC(N)=O)NC1=O | BACTEC | inhibition | - | - | - | H37Rv | 12.5 µg/mL | Mycobacterium tuberculosis | culture | 26%
Nc1ccccc1C1CCCCC1 | - | MIC | - | - | - | H37Rv | - | Mycobacterium tuberculosis | culture | >100 µg/mL
NNC(=O)CCC1(c2ccccc2)CCCC/C1=N\O | BACTEC | inhibition | - | - | - | H37Rv | 12.5 µg/mL | Mycobacterium tuberculosis | culture | 21%
CCN(CC)CCCC(C)=O.Cl | - | MIC | - | - | - | H37Rv | - | Mycobacterium tuberculosis | culture | >100 µg/mL
CC(NCCNCc1ccccc1F)C12CC3CC(CC(C3)C1)C2 | - | MIC | - | - | - | - | - | Mycobacterium tuberculosis | culture | 50 µM
CCOC(=O)c1cc2cc(C)cc(C(=O)c3ccc([N+](=O)[O-])cc3)c2[nH]1 | resazurin | inhibition | - | - | - | H37Rv | 6.25 µg/mL | Mycobacterium tuberculosis | culture | -15%
COc1ccc(CCNCCNCCC2=CCCCC2)cc1 | - | MIC | - | - | - | - | - | Mycobacterium tuberculosis | culture | 12.5 µM
CC(O)CN1CCN(CC(C)O)C(C)C1 | BACTEC | MIC | - | - | - | H37Rv | - | Mycobacterium tuberculosis | culture | ≥12.8 µg/mL
CC(C)c1cc(C(C)C)c(C(=O)Nc2nnc(NCc3cccs3)s2)c(C(C)C)c1 | - | IC50 | - | - | Polymerase | - | - | Human cytomegalovirus | target | >25 µM
COCCNCCNC[C@]1(C)CCC[C@]2(C)c3ccc(C(C)C)cc3CC[C@@H]12 | - | MIC | - | - | - | - | - | Mycobacterium tuberculosis | culture | 12.5 µM
COc1ccc(CNc2nnc(NC(=O)c3cccc([N+](=O)[O-])c3)s2)cc1OC | - | IC50 | - | - | Polymerase | - | - | Human cytomegalovirus | target | >25 µM
Fc1ccc(N2CCCCC2)c(NC(=S)c2ccncc2)c1 | kinase activity | inhibition | - | - | MSK2 | - | 10 µM | - | host protein | 49%
CCCCC(CC)CN1CN(CC(CC)CCCC)CC(C)(NCCNCc2cccc(F)c2)C1 | - | MIC | - | - | - | - | - | Mycobacterium tuberculosis | culture | 50 µM
CCOc1ccc2ccccc2c1C(=O)Nc1nnc(NCc2ccc(S(N)(=O)=O)cc2)s1 | - | IC50 | - | - | Polymerase | - | - | Human cytomegalovirus | target | <25 µM
COCCNC(=O)c1ccc2c(c1)n(O)c(=O)c(C#N)[n+]2[O-] | BACTEC | inhibition | - | - | - | H37Rv | 12.5 µg/mL | Mycobacterium tuberculosis | culture | 10%
C=CCc1ccc(O)c(OC)c1 | turbidity | MIC90 | - | - | - | ATCC 750 | - | Candida tropicalis | culture | 485 µg/mL
O=C(O)CCC(=O)O | - | MIC | - | - | - | H37Rv | - | Mycobacterium tuberculosis | culture | >100 µg/mL
CCN(C(=S)S)c1ccccc1 | BACTEC | MIC | - | - | - | H37Rv | - | Mycobacterium tuberculosis | culture | ≥12.5 µg/mL
NCCc1ccccc1 | - | MIC | - | - | - | H37Rv | - | Mycobacterium tuberculosis | culture | >100 µg/mL
Cc1ccc(-c2cncc(N3CCN(c4ccccc4)CC3)n2)cc1 | - | inhibition | - | - | UL97 kinase | - | 1 µM | Cytomegalovirus | target | <50%
Cc1cc(Cl)ccc1NC(=O)C(=O)Cc1occc(=O)c1O | resazurin | MIC bound | - | - | - | H37Rv | - | Mycobacterium tuberculosis | culture | >6.25 µg/mL
O=C(O)/C(=C\c1ccccc1)c1ccccc1 | - | MIC | - | - | - | H37Rv | - | Mycobacterium tuberculosis | culture | 50 µg/mL
CC(=O)C(N=Nc1ccc(S(=O)(=O)NC2ONC(C)C2C)cc1)C(=O)Nc1ccc(Cl)cc1 | BACTEC | inhibition | - | - | - | H37Rv | 12.5 µg/mL | Mycobacterium tuberculosis | culture | 1%
NC(=O)c1ccc(N)cc1O | - | MIC | - | - | - | H37Rv | - | Mycobacterium tuberculosis | culture | >100 µg/mL
CC(C)c1ccc2c(c1)CC[C@H]1[C@](C)(CNCCNCC(O)c3ccccc3)CCC[C@]21C | - | MIC | - | - | - | - | - | Mycobacterium tuberculosis | culture | 12.5 µM
CC(C)C1OC(=O)/C=C/C=C/C=C/C=C/C=C/CC(O)C(C)C(O)CC(O)CC(O)CC(O)CC(O)CC(O)CC(O)/C=C/C1C | BACTEC | inhibition | - | - | - | H37Rv | 12.5 µg/mL | Mycobacterium tuberculosis | culture | 14%
Cl.NOCCc1ccccc1 | - | MIC | - | - | - | H37Rv | - | Mycobacterium tuberculosis | culture | 50 µg/mL
CC(=O)Nc1n[n+]([O-])c2cc(C)ccc2[n+]1[O-] | BACTEC | MIC bound | - | - | - | H37Rv | - | Mycobacterium tuberculosis | culture | <6.25 µg/mL
N#Cc1ccc(C(=O)Nc2nnc(NCc3cccc4ccccc34)s2)cc1 | - | IC50 | - | - | Polymerase | - | - | Human cytomegalovirus | target | <25 µM
Cc1cc(C)c(C2=C(O)c3ccccc3C(=O)C2=O)c(C)c1 | - | MIC | - | - | - | H37Rv | - | Mycobacterium tuberculosis | culture | >100 µg/mL
CCOc1c(N=Nc2ccccc2OC)c(C)nn1C(=S)S | BACTEC | inhibition | - | - | - | H37Rv | 12.5 µg/mL | Mycobacterium tuberculosis | culture | 14%
O=C(O)C(O)C(O)C(=O)O | - | MIC | - | - | - | H37Rv | - | Mycobacterium tuberculosis | culture | >100 µg/mL
CCN(C1=c2ccccc2=NC1)c1cncc(-c2ccc(C(N)=O)cc2)n1 | - | IC50 | - | - | UL97 kinase | - | - | Cytomegalovirus | target | <1 µM
Nc1nc2nc3c(nc2c(=O)[nH]1)CN(C1CCCCC1)C3=O | BACTEC | MIC bound | - | - | - | H37Rv | - | Mycobacterium tuberculosis | culture | >12.8 µg/mL
Clc1ccc(N2CCN(c3cncc(-c4csc5ccccc45)n3)CC2)cc1 | - | inhibition | - | - | UL97 kinase | - | 1 µM | Cytomegalovirus | target | <50%
COc1ccc(C)cc1N | - | MIC | - | - | - | H37Rv | - | Mycobacterium tuberculosis | culture | >100 µg/mL
COc1ccccc1CCNCCNC1CCCc2ccccc21 | - | MIC | - | - | - | - | - | Mycobacterium tuberculosis | culture | 50 µM

A second listing of 5 rows from above:

compound,method,read-out,cell line,mutations,protein,strain,dose,agent,kind,result
NNC(=O)CCC1(c2ccccc2)CCCC/C1=N\O,BACTEC,inhibition,-,-,-,H37Rv,12.5 µg/mL,Mycobacterium tuberculosis,culture,21%
Clc1ccc(N2CCN(c3cncc(-c4csc5ccccc45)n3)CC2)cc1,-,inhibition,-,-,UL97 kinase,-,1 µM,Cytomegalovirus,target,<50%
Cc1nc2ccccc2[nH]c1=O,-,MIC,-,-,-,H37Rv,-,Mycobacterium tuberculosis,culture,>100 µg/mL
COCCNC(=O)c1ccc2c(c1)n(O)c(=O)c(C#N)[n+]2[O-],BACTEC,inhibition,-,-,-,H37Rv,12.5 µg/mL,Mycobacterium tuberculosis,culture,10%
CCOc1ccc2ccccc2c1C(=O)Nc1nnc(NCc2ccc(S(N)(=O)=O)cc2)s1,-,IC50,-,-,Polymerase,-,-,Human cytomegalovirus,target,<25 µM